This experiment concerns Candida albicans. Put plainly: Antifungal activity against Candida albicans ATCC 14053 at 200 ug/disk.

For `CC1=C[C@H]2O[C@@H]3C[C@H]4OC(=O)/C=C\C=C\[C@H]([C@@H](C)O)OCC/C(C)=C/C(=O)OC[C@@]2(CC1)[C@]4(C)[C@]31CO1`, the inhibition zone (IZ) stood at 29 mm.

(Values after ChEMBL document CHEMBL1158261, “Cercophorins A-C: novel antifungal and cytotoxic metabolites from the coprophilous fungus Cercophora areolata” (1996).)
